Measured values taken from publication PMC12679539, “Synthesis and evaluation of nitroheterocyclic aromatic adamantane amides with trypanocidal activity. Part II” (RSC Medicinal Chemistry, 2025).

System: T. cruzi epimastigotes
Test: Activity against Trypanosoma cruzi epimastigotes (Alamar Blue growth inhibition)
Type: cell-based, Trypanosoma cruzi (strain CL Brener)
Conditions: ratio of IC50 values obtained with L6 cells and T. cruzi epimastigotes
Protocol: Trypanocidal activity was assessed by growing parasites in microtiter plates in the presence of various drug concentrations. […] The plates were incubated for 4 days at 28 °C and 20 μL Alamar Blue (Biosource UK Ltd) was then added to each well. After an additional 3 days incubation, the fluorescence was determined using a Gemini fluorescent plate reader (Molecular Devices). Inhibition of growth was calculated by comparison with control values and IC50 and IC90 values were determined in triplicate using linear regression analysis.

CC1CS(=O)(=O)CCN1/N=C/c1ccc([N+](=O)[O-])o1 (stereo not shown) [Nfx, nifurtimox, reference compound] was tested, and the “S.I. (epimastigotes) IC50/Tc IC50” value was 10.
